Experimental data: PubChem BioAssay AID504761 (Drosophila RNAi Screening Center, 2011)

Purpose: 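Genome-wide fly cell screen for genes dengue virus requires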 (primary screen)
System: D.Mel-2 cells from Drosophila
Knock-down reagent: long dsRNA against Drosophila genes
Conditions: infection with dengue virus type 2; dose and infection time not stated
Detection: 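Per well on two replicate plates, imaging gave the percent of cells positive for viral envelope protein, ranked by infection, and a nuclear count of cells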
Direction: infection score: higher = more virus-infected cells; cell count: higher = more cells in the well
Active means: 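Very low infection ranking in both replicate wells (chance probability at most 0.065), then a retest showing infection dropped 1.5-fold or more at p below 0.05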
Calls: active = confirmed: knock-down lowers infection; inactive = not picked or not confirmed
The screen tested about 22,000 reagents; this is a random part of those that have a named target and a result. Over the whole deposit, 116 (0.52%) are marked active. 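Calls depend on retest data that are not deposited; infection was ranked per plate without normalising between plates; the unit of the infection score is not given.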 The raw values are shown without normalisation. A number with no mark means an inactive call. Names joined by + are all predicted targets of the reagent. The record does not give: the amount of reagent, the time to read-out.

| target gene | amplicon | infection score, replicate 1 | infection score, replicate 2 | cell count, replicate 1 | cell count, replicate 2 |
| --- | --- | --- | --- | --- | --- |
| Syb (Synaptobrevin) | DRSC07559 | 12.9 | 12.2 | 5776 | 5853 |
| Syb (Synaptobrevin) | DRSC25904 | 6.1 | 1.6 | 6048 | 6858 |
| CG5890 | DRSC15909 | 5.41 | 5.24 | 6306 | 6349 |
| CG33259 | DRSC10854 | 0.83 | 1.07 | 6237 | 6348 |
| CG33259 | DRSC29910 | 16.4 | 16.2 | 6373 | 6201 |
| CG5262 | DRSC11773 | 15.6 | 17.9 | 5165 | 4067 |
| Or33c (Odorant receptor 33c) | DRSC03388 | 17.2 | 12.3 | 5814 | 1947 |
| Vha100-5 (Vacuolar H[+] ATPase 100kD subunit 5) | DRSC02175 | 13.4 | 19.7 | 6060 | 1787 |
| Vha100-5 (Vacuolar H[+] ATPase 100kD subunit 5) | DRSC26439 | 3.91 | 0.86 | 5902 | 6745 |
| CG7582 | DRSC16261 | – | 4.41 | 317 | 1587 |
| Svil (Supervillin) | DRSC08296 | 7.98 | 9.12 | 6314 | 5943 |
| Svil (Supervillin) | DRSC08332 | 2.32 | 1.59 | 6452 | 6718 |
| Svil (Supervillin) | DRSC08494 | 1.46 | 5.53 | 6442 | 6493 |
| Svil (Supervillin) | DRSC24435 | 10.3 | 8.93 | 7019 | 6450 |
| Svil (Supervillin) | DRSC25804 | 2.88 | 8.4 | 6520 | 6177 |
| e (ebony) | DRSC16936 | 2.44 | 1.61 | 6549 | 6320 |
| e (ebony) | DRSC24320 | 1.9 | 2.43 | 6536 | 6951 |
| CG5665 | DRSC11783 | 21.2 | 14 | 4798 | 4517 |
| His4:CG33883 + His4:CG33889 + His4:CG33899 + 20 more | DRSC21268 | 10.5 | 3.62 | 5911 | 6466 |
| His4:CG33883 + His4:CG33889 + His4:CG33899 + 20 more | DRSC30020 | 7.55 | 14.9 | 6344 | 3659 |
| ppk5 (pickpocket 5) | DRSC11492 | 4.75 | 2.07 | 6195 | 6149 |
| rnh1 (ribonuclease H1) | DRSC07673 | 6.83 | – | 6017 | 418 |
| eIF3f2 (eukaryotic translation initiation factor 3 subunit f2) | DRSC04903 | 4.51 | 18.4 | 6493 | 6304 |
| CG13563 | DRSC22153 | 6.78 | 3.18 | 6683 | 6702 |
| nolo (no long nerve cord) | DRSC03705 | 2.16 | 31.4 | 6487 | 5744 |
| nolo (no long nerve cord) | DRSC03719 | 22.7 | 20.4 | 6011 | 6012 |
| nolo (no long nerve cord) | DRSC03720 | 28.8 | 27.8 | 5252 | 5215 |
| eIF1A (eukaryotic translation initiation factor 1A) | DRSC16937 | 7.16 | 2.34 | 5113 | 5815 |
| PlexA (Plexin A) | DRSC17220 | 6.63 | 3.51 | 5939 | 6014 |
| CG10317 | DRSC14229 | 2.65 | 5.51 | 6264 | 6350 |
| CG8248 | DRSC07124 | 3.09 | 6.24 | 6337 | 6440 |
| CG2794 | DRSC00534 | 11.5 | 22.1 | 6332 | 6136 |
| sug (sugarbabe) | DRSC06855 | 5.41 | 9.88 | 6232 | 6465 |
| sug (sugarbabe) | DRSC29599 | 18 | 7.15 | 3774 | 895 |
| gwl (greatwall) | DRSC16305 | 1.33 | 3.08 | 5102 | 5460 |
| CG11350 | DRSC08181 | 4.94 | 2.22 | 6294 | 5776 |
| CG11350 | DRSC25083 | 11.5 | 7.51 | 5935 | 6057 |
| VhaAC39-1 (Vacuolar H[+] ATPase AC39 subunit 1) | DRSC18242 | 1.11 | 3.04 | 6286 | 6537 |
| VhaAC39-1 (Vacuolar H[+] ATPase AC39 subunit 1) | DRSC27608 | 1.64 (active) | 2.19 | 5431 | 5515 |
| CG1440 | DRSC17915 | 2.28 | 3.71 | 6273 | 6571 |
| CG15927 | DRSC19742 | 13.4 | 8.1 | 6259 | 6504 |
| CG15927 | DRSC28678 | 26.4 | 11.5 | 4685 | 3359 |
| sosie | DRSC14636 | – | – | 339 | 359 |
| sosie | DRSC21382 | 2.36 | 8.72 | 5471 | 5311 |
| sosie | DRSC26930 | 6.52 | 7.5 | 6230 | 6203 |
| Obp99d (Odorant-binding protein 99d) | DRSC15046 | – | – | 310 | 301 |
| Toll-7 | DRSC07563 | 0.53 | 1.41 | 5637 | 6514 |
| Toll-7 | DRSC29640 | 17.6 | 12.7 | 5961 | 1681 |
| CG6435 | DRSC06987 | 17 | 17.4 | 2171 | 7121 |
| chn (charlatan) | DRSC06086 | 29.5 | 5.55 | 5653 | 6220 |
| chn (charlatan) | DRSC29342 | 20.3 | 12.2 | 5228 | 3959 |
| Doc2 (Dorsocross2) | DRSC22716 | 4.62 | 9.85 | 6487 | 6872 |
| Doc2 (Dorsocross2) | DRSC25293 | 3.08 | 1.76 | 6196 | 6637 |
| CG30008 | DRSC21576 | 1.94 | 20.2 | 5610 | 5656 |
| CG30008 | DRSC27726 | 12.9 | 34.8 | 6589 | 5234 |
| Sp1 | DRSC17622 | 2.61 | 6.06 | 5826 | 5542 |
| Sp1 | DRSC18717 | 3.81 | 3.11 | 6540 | 6585 |
| Sp1 | DRSC23810 | 0.58 | 3 | 6252 | 6490 |

Called active, of those listed so far:
| target gene | amplicon | infection score, replicate 1 | infection score, replicate 2 | cell count, replicate 1 | cell count, replicate 2 |
| --- | --- | --- | --- | --- | --- |
| VhaAC39-1 (Vacuolar H[+] ATPase AC39 subunit 1) | DRSC27608 | 1.64 (active) | 2.19 | 5431 | 5515 |
